According to article PMC5679670, “The helicase DinG responds to stress due to DNA double strand breaks” (PLoS ONE, 2017):

Target: T1, DinGNm (Neisseria meningitidis MC58) (UniProt Q9K181)
T1 sequence (looked up, limits assumed): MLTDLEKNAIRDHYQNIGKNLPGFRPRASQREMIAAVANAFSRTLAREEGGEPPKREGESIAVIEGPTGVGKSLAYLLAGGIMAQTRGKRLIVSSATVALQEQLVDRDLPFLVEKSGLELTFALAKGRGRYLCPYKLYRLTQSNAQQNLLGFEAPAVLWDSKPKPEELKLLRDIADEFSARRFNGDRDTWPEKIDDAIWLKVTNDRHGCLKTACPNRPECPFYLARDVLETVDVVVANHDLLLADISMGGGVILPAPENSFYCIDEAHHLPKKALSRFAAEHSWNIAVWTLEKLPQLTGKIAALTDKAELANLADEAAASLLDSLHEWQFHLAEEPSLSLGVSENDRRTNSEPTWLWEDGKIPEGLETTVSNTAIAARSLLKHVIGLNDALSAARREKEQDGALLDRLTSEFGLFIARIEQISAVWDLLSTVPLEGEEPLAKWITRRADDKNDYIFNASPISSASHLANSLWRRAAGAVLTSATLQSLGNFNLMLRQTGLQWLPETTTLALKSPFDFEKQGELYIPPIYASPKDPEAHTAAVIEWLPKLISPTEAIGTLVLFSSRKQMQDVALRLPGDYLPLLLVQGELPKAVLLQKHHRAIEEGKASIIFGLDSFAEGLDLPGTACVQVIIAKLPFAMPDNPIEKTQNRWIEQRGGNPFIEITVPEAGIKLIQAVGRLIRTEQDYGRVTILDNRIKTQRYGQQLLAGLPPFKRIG
Assay: EMSA
Settings: protein titration, curve only in figure; EMSA: 40 mM Tris-HCl pH 8, 2.5 mM EDTA, 2 mM MgCl2, 6% glycerol, 2 mM DTT, 0.1 nM 32P-DNA, 15 min on ice; 5% native PAGE in ice bath; recombinant protein; protein details: C-terminal 6xHis; label: 32P; single-stranded DNA

**Q.** Does “TTTTTTTTTTTTTTTTTTTTTTTTTTTTTTTTTTTTTTTTTTTTTTTTTTTTTTTTTTTTTTTTTTTTTTTTTTTTTTTTTTTTTTTTTTTTTTTTTTTT [poly dT100]” bind?
**A.** Result: binds

The exact form of at least one protein or probe is not confirmed. At least one verdict rests on a figure or table, not on a statement of the authors. Tags and fusion partners may be left off the protein sequences shown.
